Results of unrelated studies side by side (data: NIAID ChemDB).

All rows: growth or infection tests; organism: Hepatitis C virus; method: replicon; read-out: EC50

a–b is a range or a potency band.

smiles	cells	strain or isolate	result
O=C(Cc1ccncc1)N/N=C/c1ccccc1OS(=O)(=O)c1ccc(C(F)(F)F)cc1	Huh7	-	5–50 µM
CCNc1cc2oc(-c3ccc(F)cc3)c(C(=O)NC)c2c(Cl)c1OS(C)(=O)=O	Huh7	-	<10 µM
COc1cccc(CC(=O)N/N=C/c2cccc(F)c2OS(=O)(=O)c2ccc(C)cc2)c1	Huh7	-	5–50 µM
Nc1nc2c(s1)CCCn1c-2c(C2CCCCC2)c2ccc(C(=O)O)cc21	Huh7	-	>10 µM
CCOc1nc(NCc2cocn2)nc2ccc(-c3ccc(F)cc3)nc12	-	-	<0.1 µM
O=C(O)c1ccc2c(C3CCCCC3)c3n(c2c1)CC(C(=O)N1CCN(c2ccncc2)CC1)=Cc1ccccc1-3	Huh7	-	0.01–1 µM
CNC(=O)c1c(-c2ccc(F)cc2)oc2cc(N(C)S(C)(=O)=O)c(OCc3nccs3)cc12	Huh7	-	<1 µM
COC(=O)c1ccc2c(C3CCCCC3)c3n(c2c1)CC(NC(=O)N1CCOCC1)Cc1ccccc1-3	Huh7	-	1–10 µM
NS(=O)(=O)c1ccc(CNc2nc(NC3CC3)c3nc(-c4ccc(NC(=O)C5(O)CC5)cc4)ccc3n2)cc1	-	-	<0.1 µM
COC(=O)c1ccc2c(C3CCCCC3)c3n(c2c1)CC(O)Cc1ccccc1-3	Huh7	-	0.01–1 µM
CCOc1nc(NCc2ccc(S(N)(=O)=O)cc2)nc2ccc(-c3ccc(N4CCC(O)C4=O)cc3)nc12	-	-	<0.1 µM
C=CCOc1cc2c(C(=O)NC)c(-c3ccc(F)cc3)oc2cc1N(CC=C)S(C)(=O)=O	Huh7	-	<1 µM
CN(Cc1ccccc1)S(=O)(=O)NC(=O)c1ccc2c(C3CCCCC3)c3n(c2c1)CC(=O)Nc1ccccc1-3	Huh7	-	0.01–1 µM
O=C(Cc1cccnc1)N/N=C/c1ccccc1OS(=O)(=O)c1ccc(C(F)(F)F)cc1	Huh7	-	<5 µM
CCOc1nc(NCc2ccc(F)cc2)nc2ccc(-c3ccc(NC(=O)NCCN4CCOCC4)cc3)nc12	-	-	<0.1 µM
O=C(CSc1ccccc1)N/N=C/c1ccccc1OS(=O)(=O)c1ccc(C(F)(F)F)cc1	Huh7	-	<5 µM
O=C(O)c1ccc2c(C3CCCCC3)c3n(c2c1)CCCn1cccc1-3	Huh7	-	>10 µM
NS(=O)(=O)c1ccc(CNc2nc(NCC(F)(F)F)c3nc(-c4ccc(=O)[nH]c4)ccc3n2)cc1	-	-	<0.1 µM
CNC(=O)c1c(-c2ccc(F)cc2)oc2cc(N3CCOCC3)c(OCC(C)=O)cc12	Huh7	-	<10 µM
O=C(N/N=C/c1ccccc1OS(=O)(=O)c1ccc(C(F)(F)F)cc1)c1ccc(Cl)cc1Cl	Huh7	-	<5 µM
NS(=O)(=O)c1ccc(CNc2nc(NC3CC3)c3nc(-c4ccc(F)cc4)ccc3n2)cc1	-	-	<0.1 µM
NC(=O)COc1ccc2c(c1)S(=O)(=O)N=C(c1c(O)c3cc(F)ccc3n(CCC3CC3)c1=O)N2	-	1a 45992	2.1 µM
CNC(=O)c1c(-c2ccccc2)oc2ccc(CO)cc12	Huh7	-	>100 µM
O=C(N/N=C/c1ccccc1OS(=O)(=O)c1ccc(C(F)(F)F)cc1)c1cnccc1C(F)(F)F	Huh7	-	5–50 µM
NS(=O)(=O)c1ccc(CNc2nc(NCC(F)(F)F)c3nc(-c4ccc(F)c(Cl)c4)ccc3n2)cc1	-	-	<0.1 µM
Cc1cccc(/C=N/NC(=O)Cc2cccc(Cl)c2)c1OS(=O)(=O)c1ccc(C(F)(F)F)cc1	Huh7	-	<5 µM
CNC(=O)c1c(-c2ccc(F)cc2)oc2cc(N(C(C)c3nn[nH]n3)S(C)(=O)=O)c(OC(C)C)cc12	Huh7	-	<1 µM
Cc1noc(C)c1-c1ccc2nc(NCc3ccc(S(N)(=O)=O)cc3)nc(NCC(F)(F)F)c2n1	-	-	<0.1 µM
CNC(=O)c1c(-c2ccc(F)cc2)oc2cc(N(CCO)S(C)(=O)=O)c(OC(C)C)cc12	Huh7	-	<10 µM
O=C(Cc1ccccc1)N/N=C/c1ccccc1OS(=O)(=O)c1ccc(Cl)c(Cl)c1	Huh7	-	<5 µM
CCOc1nc(NCc2ccc(S(C)(=O)=O)cc2)nc2ccc(-c3ccc(F)cc3)nc12	-	-	<0.1 µM
COc1cccc(CC(=O)N/N=C/c2ccccc2OS(=O)(=O)c2ccc(N3CCOCC3)nc2)c1	Huh7	-	5–50 µM
O=C(O)/C=C/c1ccc(NCC2(NC(=O)c3ccc4c(C5CCCCC5)c5n(c4c3)CC(C(=O)N3CCCC(O)C3)Cc3ccccc3-5)CCCC2)cc1	Huh7	-	0.01–1 µM

A second listing of 3 rows from above:

smiles	cells	strain or isolate	result
NS(=O)(=O)c1ccc(CNc2nc(NCC(F)(F)F)c3nc(-c4ccc(=O)[nH]c4)ccc3n2)cc1	-	-	<0.1 µM
Nc1nc2c(s1)CCCn1c-2c(C2CCCCC2)c2ccc(C(=O)O)cc21	Huh7	-	>10 µM
CNC(=O)c1c(-c2ccc(F)cc2)oc2cc(N3CCOCC3)c(OCC(C)=O)cc12	Huh7	-	<10 µM

Neighbouring rows are from separate reports. ECn: concentration that inhibits the pathogen or its effect by n%. An empty or dashed field is not shown.